Percent effect of library compounds

The values are deposited in ChEMBL (CHEMBL3988442, “University of Dundee, Small-Polar-MMV Screening Library” (2021)).

A: 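Phenotypic screen: M. tuberculosis growth, cholesterol and DPPC medium, 4 days; the read-out is not stated. Concentration: 500 µM. The record gives no direction; compounds that gave an IC50 in retests scored well above the rest, so higher reads as more growth inhibition. Size under these conditions: about 18,000 compounds, about 900 of them at 50% or above in at least one test.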
B: 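Growth of Mycobacterium tuberculosis over 3 days (7H9 medium with glucose and tyloxapol); the read-out is not stated. Tested at 500 µM. The record gives no direction; compounds that gave an IC50 in retests scored well above the rest, so higher reads as more growth inhibition. Size under these conditions: about 18,000 compounds, about 1,400 of them at 50% or above in at least one test.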

Values are the deposited “Percent Effect”, in %. The record does not define 0% and 100%; most values in the screen are far below 50% and negative numbers occur (in some assays of this library far below -100). This is part of a subset picked to be rich in strong results. A dash means the value is not listed here; it may have been measured.

| # | SMILES | A | B |
|---|---|---|---|
| 1 | `CN(C)c1cc(C(=O)Nc2ccccc2F)ccn1` | 71.15 | 80.91 |
| 2 | `CC(=O)N1Cc2ccccc2C[C@H]1C(=O)N1CCCC1` | 8.663 | - |
| 3 | `NC(=O)CCN1CCC(CN2CCCC2)CC1` | - | 19.98 |
| 4 | `Cc1cc(Cn2c(=O)[nH]c3ccccc3c2=O)no1` | -11.35 | -22.05 |
| 5 | `N#CCC(=O)NCCNC(=O)c1ccccc1` | - | -11.39 |
| 6 | `CC1COC2(CCN(C(=O)c3ccc(Cl)s3)CC2)O1` (configuration not stated) | 83.24 | 86.38 |
| 7 | `Cc1cc(NC(C)c2ccco2)nc(N)n1` (configuration not stated) | - | 53.05 |
| 8 | `CCOC(=O)c1cc(NC(=O)C2CC2)c[nH]1` | - | 26.36 |
| 9 | `CN(Cc1cc(C(N)=O)cs1)Cc1nccn1C` | 1.21 | - |
| 10 | `O=C(c1ccc(Br)c(O)c1)N1CCCC1CCCO` (configuration not stated) | - | 16.57 |
| 11 | `O[C@@H]1CNC[C@H]1n1ccnn1` | 87.43 | 90.37 |
| 12 | `N[C@H]1C[C@@H](c2cc(NCCCN3CCCC3)ncn2)C1` | - | -2.536 |
| 13 | `O=C(C1CCCN(c2ccncc2Cl)C1)N1CCCC1` (configuration not stated) | -1.641 | -9.149 |
| 14 | `CNC(=O)c1cccc(NCc2cccnc2)n1` | 10.7 | 5.019 |
| 15 | `CN(C)c1ccc(N)nc1` | - | -393.6 |
| 16 | `N[C@H]1C[C@@H](c2cc(NCCc3cscn3)ncn2)C1` | 8.456 | - |
| 17 | `Cc1cc(Br)oc1C(=O)N1CCCN(C)CC1` | 36.42 | 50.75 |
| 18 | `CC(C)c1nnc(CN2C[C@@H]3CCC[C@H](C2)C(=O)N3)o1` | -5.07 | - |
| 19 | `COCCC(=O)NCC(C)c1ccc(F)c(F)c1` (configuration not stated) | 34.16 | 76.31 |
| 20 | `Cc1nnc(CCNC(=O)C(O)CC(C)C)s1` (configuration not stated) | -0.3328 | - |
| 21 | `O=C(N[C@H]1C[C@@H]2OCC[C@H]12)c1cc(O)ccc1F` | 7.276 | - |
| 22 | `CNC(=O)C(C)(C)CNC(=O)Nc1ncc(C)cc1Br` | - | -4.773 |
| 23 | `Cc1cc(=O)cc(C(=O)NCCC(C)n2ccnc2)o1` (configuration not stated) | - | -2.764 |
| 24 | `CCNC(=O)CN(C)C(=O)c1cc(Cl)ccc1O` | 4.296 | - |
| 25 | `CNCC(=O)N1CCCc2ccccc21` | - | -5.84 |
| 26 | `C[C@@H]1CN(C(=O)CN2CCCC2)CC[C@@]1(O)C1CC1` | 8.458 | - |
| 27 | `Cn1cc(C2NC(=O)CC[C@@H]2N)cn1` (some centres not stated) | - | 3.155 |
| 28 | `O=C(CSC1=NCCN1)Nc1ccc(F)cc1` | - | 4.577 |
| 29 | `c1ccc(NCc2c[nH]nn2)cc1` | - | 14.37 |
| 30 | `CN(C)C(=O)NCCc1ccc(F)cc1` | -0.5082 | - |
| 31 | `Cc1cc(F)cc(NCc2ncc[nH]2)c1` | - | 45.42 |
| 32 | `COCc1ccccc1C(=O)NCCN1CCCC1` | -3.266 | - |
| 33 | `O=C(NC1CC1)c1cccc2cn[nH]c12` | - | 18.39 |
| 34 | `COc1ccc(-c2noc(C3(O)CCCC3)n2)cn1` | 73.6 | 64.67 |
| 35 | `CCOC(=O)CNC(=O)Nc1ccc(C#N)cc1` | 4.596 | 9.463 |
| 36 | `N#CCCNC(=O)COc1cc(Cl)ccc1C(N)=O` | - | 22.84 |
| 37 | `N#Cc1cccnc1OC1CCC(N)CC1` (configuration not stated) | - | 25.23 |
| 38 | `CCNc1ncc(C(=O)N2CCCO2)s1` | 2.53 | -1.812 |
| 39 | `O=C1CC(C(=O)Nc2cccnc2)c2ccccc2N1` (configuration not stated) | - | 8.08 |
| 40 | `Cc1nc(CC(=O)NC2C=CS(=O)(=O)C2)cs1` (configuration not stated) | - | 3.857 |
| 41 | `CCN(C)S(=O)(=O)N(CC)CC(O)c1ccc(C)cc1` (configuration not stated) | 61.23 | 72.48 |

2 of the entries, repeated:

| SMILES | A | B |
|---|---|---|
| `CCNc1ncc(C(=O)N2CCCO2)s1` | 2.53 | -1.812 |
| `N#Cc1cccnc1OC1CCC(N)CC1` (configuration not stated) | - | 25.23 |